PubChem BioAssay AID504761 | Drosophila RNAi Screening Center | 2011
The screen tested about 22,000 reagents; below is an unselected part of those with a known target gene and a result. In the full data, 116 (0.52%) are marked active. 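Calls depend on retest data that are not deposited; infection was ranked per plate without normalising between plates; the unit of the infection score is not given.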 Raw values are not corrected between plates. Reagents against one gene are numbered here. Further read-outs or replicates are left out here. Not stated in the record: the amount of reagent, the time to read-out.

- Aim: 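Genome-wide fly cell screen for genes dengue virus requires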 (primary screen)
- Cells: D.Mel-2 cells from Drosophila
- Reagents: long dsRNA against Drosophila genes
- Challenge: infection with dengue virus type 2; dose and infection time not stated
- Measured: 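Per well on two replicate plates, imaging gave the percent of cells positive for viral envelope protein, ranked by infection, and a nuclear count of cells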
- Direction: infection score: higher = more virus-infected cells; cell count: higher = more cells in the well
- Hit rule: 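Low infection ranks in the two replicates (chance level up to 0.065) followed by a retest with a 1.5-fold or larger significant decrease, p below 0.05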
- Calls: active = confirmed: knock-down lowers infection; inactive = not picked or not confirmed

gene	reagent no.	infection score, replicate 1	infection score, replicate 2	cell count, replicate 1	outcome
Abcd3	1	8.77	2.67	4924	inactive
Abcd3	2	18.9	4.84	4510	inactive
CG6321	1	3.75	2.66	6568	inactive
CG3916	1	16.2	5.38	5873	inactive
CG3916	2	9.26	10.4	6428	inactive
Obp85a	1	13.4	20	6814	inactive
Kebab	1	1.47	6.83	6190	inactive
Kebab	2	17.7	7.34	4916	inactive
CG7523	1	13.7	18.9	6064	inactive
CG42540	1	4.24	3.53	5592	inactive
CG42540	2	4.47	3.09	5973	inactive
CG42540	3	9.39	7.06	6274	inactive
CG42540	4	7.02	0.25	1211	inactive
CG7879	1	10.3	0.21	5216	inactive
CG7879	2	3.64	2.05	7083	inactive
CG11630	1	2.34	4.91	6797	inactive
Gr59a	1	1.92	3.41	6194	inactive
Pdp1	1	1.72	5.24	4061	inactive
Pdp1	2	1.96	4.03	1531	inactive
Pdp1	3	4.81	13.8	6253	inactive
Pdp1	4	1.16	13.4	6185	inactive
lov	1	18.7	16.9	5888	inactive
lov	2	1.35	3.1	6941	inactive
lov	3	1.93	5.4	5849	inactive
CG8343	1	13.4	26.6	6670	inactive
CG8343	2	10.4	12.8	6109	inactive
CG6683	1	5.93	7.88	944	inactive
CG6683	2	4.24	4.38	6160	inactive
colt	1	1.99	9.16	6130	inactive
colt	2	0.25	21.8	396	inactive
CG17636	1	1.36	0.69	6337	inactive
scaRNA:MeU5-C46	1	3.09	3.25	6435	inactive
CG8072	1	3.67	2.14	5563	inactive
CheB42b	1	1.35	12	5400	inactive
alphaTry	1	10.3	22	6012	inactive
AP-2alpha	1	2.22	1.65	6582	inactive
AP-2alpha	2	0.69	1.64	5963	active
Ugt35E1	1	5.08	6.69	6137	inactive
Ugt35E1	2	17.1	5.2	5482	inactive
Vdup1	1	2.5	4.24	6573	inactive
Cyp6t2Psi	1	1.87	1.22	5873	inactive
Cyp6t2Psi	2			292	inactive
SoYb	1	7.46	4.68	6197	inactive
meigo	1		14.1	324	inactive
meigo	2	2.49	1.4	6135	inactive
MKP-4	1	14.3	2.65	6213	inactive
MKP-4	2	3.92	15.8	6218	inactive
GluProRS	1	1.07	11.9	5396	inactive
CG4338	1	17.5	23.4	4855	inactive
CG13946	1	2.69	13.1	6582	inactive
dome	1	6.92	1.7	6329	inactive
mRpL49	1	5.95	8.82	2049	inactive
CG30345	1	9.8	3.35	5733	inactive
Sema5c	1	2.62	1.79	5448	inactive
Sema5c	2	4.74	6.49	6433	inactive
ATPsynbeta	1	6.99	8.24	4021	inactive
RhoGAP5A	1	5.09	3.22	5875	inactive
RhoGAP5A	2	3.7	2.21	6155	inactive

Laid out differently: results already given.
CG42540 #3 — infection score, replicate 1: 9.39; infection score, replicate 2: 7.06; cell count, replicate 1: 6274; outcome: inactive
CG42540 #4 — infection score, replicate 1: 7.02; infection score, replicate 2: 0.25; cell count, replicate 1: 1211; outcome: inactive
CG7879 #1 — infection score, replicate 1: 10.3; infection score, replicate 2: 0.21; cell count, replicate 1: 5216; outcome: inactive
CG7879 #2 — infection score, replicate 1: 3.64; infection score, replicate 2: 2.05; cell count, replicate 1: 7083; outcome: inactive
CG11630 — infection score, replicate 1: 2.34; infection score, replicate 2: 4.91; cell count, replicate 1: 6797; outcome: inactive
Gr59a — infection score, replicate 1: 1.92; infection score, replicate 2: 3.41; cell count, replicate 1: 6194; outcome: inactive
Pdp1 #1 — infection score, replicate 1: 1.72; infection score, replicate 2: 5.24; cell count, replicate 1: 4061; outcome: inactive
